Test results reported in patent publication US20160355553A1 (Janssen / Centocor, published 2016).

Tests used:
Test in all cases: FACS on HEK293F [D00014 FIG. 10B]
[1] = target: HK68 H3m2-cl9+10+11+13-tri (influenza A virus H3N2, UniProt Q91MA7 17-566)
[2] = target: HK68 H3m2-cl9+10 (influenza A virus H3N2, UniProt Q91MA7 17-566)
[3] = target: HK68 H3m2-cl9+10+11+12-tri (influenza A virus H3N2, UniProt Q91MA7 17-566)
[4] = target: HK68 H3m2-cl9+10+12 (influenza A virus H3N2, UniProt Q91MA7 17-566)
[5] = target: HK68 H3m2-cl9+10+11+12 (influenza A virus H3N2, UniProt Q91MA7 17-566)
[6] = target: HK68 H3m2-cl9 (influenza A virus H3N2, UniProt Q91MA7 17-566)
[7] = target: HK68 H3m2-cl9+10+11 (influenza A virus H3N2, UniProt Q91MA7 17-566)
[8] = target: HK68 H3m2-cl9+10+11+13 (influenza A virus H3N2, UniProt Q91MA7 17-566)
[9] = target: HK68 H3m2-cl9+10+11+13-GCN4 (influenza A virus H3N2, UniProt Q91MA7 17-566)

Measured: binding result

B1: CR9114 (antibody, V domains shown)
VH: QVQLVQSGAEVKKPGSSVKVSCKSSGGTSNNYAISWVRQAPGQGLDWMGGISPIFGSTAYAQKFQGRVTISADIFSNTAYMELNSLTSEDTAVYFCARHGNYYYYSGMDVWGQGTTVTVSS
VL: SYVLTQPPAVSGTPGQRVTISCSGSDSNIGRRSVNWYQQFPGTAPKLLIYSNDQRPSVVPDRFSGSKSGTSASLAISGLQSEDEAEYYCAAWDDSLKGAVFGGGTQLTVL
no binding (tested: 5 ug/ml): all assays above

B2: CR8057 (antibody, V domains shown)
VH: EVQLVESGGGLVQPGGSLRLSCAASGFTDSVIFMSWVRQAPGKGLECVSIIYIDDSTYYADSVKGRFTISRHNSMGTVFLEMNSLRPDDTAVYYCATESGDFGDQTGPYHYYAMDV
VL: QSALTQPASVSGSPGQSITISCTGSSGDIGGYNAVSWYQHHPGKAPKLMIYEVTSRPSGVSDRFSASRSGDTASLTVSGLQAEDEAHYYCCSFADSNILI
no binding (tested: 5 ug/ml): [7]
